Results of unrelated studies side by side (data: NIAID ChemDB).

All rows: whole-cell or culture tests; agent: HIV-1; cells: PBMC; endpoint: EC50

Two numbers with a dash give a range or band.

| smiles | strain or isolate | changes | read by | conditions | value |
|---|---|---|---|---|---|
| Nc1nc2c(ncn2[C@H]2CO[C@@H](CO)O2)c(=O)[nH]1 | LAI |  |  |  | 0.105 µM |
| Cc1cn([C@H]2C=C[C@@H](COC(=O)CCNC(=O)C(=O)/C=C(\O)c3cccn3Cc3ccc(F)cc3)O2)c(=O)[nH]c1=O | BaL |  | RT activity |  | 1.5 µM |
| Cc1cn([C@H]2C[C@H](OC(N)=S)[C@@H](CO)O2)c(=O)[nH]c1=O | LAV |  |  |  | >100 µM |
| Cc1cn([C@H]2C[C@H](N=[N+]=[N-])[C@@H](CO)O2)c(=O)[nH]c1=O | IIIB Subtype B |  | p24 |  | 0.0011 µM |
| Nc1nc(=O)n([C@H]2C=C[C@@H](CO)O2)cc1F |  |  |  |  | <0.07 µM |
| c1cc(CN2CCCNCCNCCCNCC2)ccc1CN1CCCNCCNCCCNCC1 | SW5 CLADE C R5 |  | p24 |  | >0.5 µM |
| Cn1cc(C(=O)O)c(=O)c2cc(F)c(N3CC=C(c4ccccc4)CC3)c(C(F)(F)F)c21 | IIIB |  | p24 |  | 0.04 µM |
| Fc1ccccc1CCNC(=S)Nc1ccc(Br)cn1 | IIIB |  | p24 |  | 0.001 µM |
| Cc1nc(N)c(Cn2cnc(C(F)(F)C(F)(F)F)c(Oc3cc(C(F)F)cc(C#N)c3C)c2=O)c(=O)[nH]1 |  |  | GFP | pseudotyped | 0.1141 µM |
| Cc1cn([C@H]2C[C@H](N=[N+]=[N-])[C@@H](CO)O2)c(=O)[nH]c1=O | IIIB |  | p24 |  | 0.011 µg/mL |
| C[C@@H](CNC(=S)Nc1ccc(Cl)cn1)C1CCCCC1 | IIIB |  | p24 |  | >0.025 µM |
| CC(C)c1nc(CN(C)C(=O)N[C@H](C(=O)N[C@@H](Cc2ccccc2)C[C@H](O)[C@H](Cc2ccccc2)NC(=O)OCc2cncs2)C(C)C)cs1 | SF33 |  | p24 / ELISA |  | 0.091 µM |
| Nc1nc(N)c2ncn([C@H]3CC[C@](OCP(=O)(O)O)(C(F)(F)F)C3)c2n1 | LAI |  | MTT |  | 39.2 µM |
| O=C(O)[C@H]1O[C@@H](Oc2cc3oc(-c4ccccc4)cc(=O)c3c(O)c2O)[C@H](O)[C@@H](O)[C@@H]1O | MN |  | cytopathic effect / p24 / ELISA |  | 0.5 µg/mL |
| O=C(NC(=S)Nc1ccc(Br)cn1)c1ccccc1[N+](=O)[O-] | Clinical isolate | L10I K14R L33I M36I M46I F53I K55R I62V L63P A71V G73S V82A L90M I93L | p24 / luminescence | clinical isolate, multidrug-resistant | 0.36 µM |
| Cc1ccc(NC(=S)N[C@H](C)c2cccc3ccccc23)nc1 | IIIB |  | p24 |  | 0.0023 µM |
| CCCc1cc(=O)oc2c3c(c4c(c12)OC(C)(C)C=C4)OC(CCl)CC3=O | NL4-3 |  |  |  | 0.052 µM |
| C[C@H](CNC(=S)Nc1ccc(Cl)cn1)c1ccccc1 | NNRTI-resistant (RT Y181C) A17 | RT-Y181C | p24 |  | 0.54 µM |
| CC(C)(C)NC(=O)[C@@H]1CN(Cc2cccnc2)CCN1C[C@@H](O)C[C@@H](Cc1ccccc1)C(=O)N[C@H]1c2ccccc2C[C@H]1O | 006 |  | p24 |  | 0.0032 µM |
| COC(=O)C(C)CNP(=O)(OC[C@@H]1CC[C@H](n2cc(C)c(=O)[nH]c2=O)O1)Oc1ccc(F)cc1 |  |  | RT activity |  | 3.1 µM |
| COC(=O)[C@H](C)NP(=O)(OC[C@H]1O[C@@H](n2cc(C)c(=O)[nH]c2=O)C[C@@H]1N=[N+]=[N-])Oc1ccc(Br)cc1 | IIIB |  | RT activity |  | 0.001–0.004 µM |
| CCCCC#CCSc1ccccc1OC(C)=O | IIIB A17 (NNRTI-resistant RT K103N Y181C) |  | p24 |  | >100 µM |
| CC(C)(C)NC(=O)[C@@H]1CN(Cc2cccnc2)CCN1C[C@@H](O)C[C@@H](Cc1ccccc1)C(=O)N[C@H]1c2ccccc2C[C@H]1O | BR59 (PR L10I K20R M36I/V P63L/S L90M) | PR-L10I K20R M36I/V P63L/S L90M | p24 |  | 0.003 µM |
| O=c1[nH]cnc2c1ncn2[C@H]1CC[C@@H](CO)O1 | 006 |  | p24 |  | 2.2 µM |
| CC(C)CN(C[C@@H](O)[C@H](Cc1ccccc1)NC(=O)[C@H](CC(N)=O)NC(=O)c1ccc2ccccc2n1)C(=O)NC(C)(C)C | Isolate A PR L10V/T12I/G16E/R57K/I64V | PR-L10V T12I G16E R57K I64V | p24 |  | <0.2 µM |
| CC(C)CN(C[C@@H](O)[C@H](Cc1ccccc1)NC(=O)O[C@H]1CCOC1)S(=O)(=O)c1ccc(N)cc1 | Clinical isolate | L10I K14R L33I M36I M46I F53I K55R I62V L63P A71V G73S V82A L90M I93L |  | clinical isolate, multidrug-resistant | 0.49 µM |
| CC(C)[C@H](NC(=O)[C@H](Cc1ccccc1)C[C@H](O)[C@H](Cc1ccccc1)NC(=O)OC(C)(C)C)C(=O)N[C@@H](Cc1ccccc1)C(=O)N1CCOCC1 | LAV |  | RT activity |  | 0.033 µM |
| CC(=O)O[C@@]12C[C@@H](C)[C@@]3(O)[C@@H](C=C(CO)C[C@]4(O)C(=O)C(C)=C[C@@H]34)[C@@H]1C2(C)C | IIIB |  | cytopathic effect / MTT |  | 0.09 µg/mL |
| NC(=O)NO | IIIB |  | p24 |  | ~50 µM |
| COC(=O)C(C)CNP(=O)(OC[C@@H]1CC[C@H](n2cc(C)c(=O)[nH]c2=O)O1)Oc1ccccc1 |  |  | RT activity |  | 2.1 µM |
| COC(=O)N[C@H](C(=O)N[C@@H](Cc1ccccc1)[C@@H](O)CN(Cc1ccc(-c2ccccn2)cc1)NC(=O)[C@@H](NC(=O)OC)C(C)(C)C)C(C)(C)C | Clinical isolate | L10I K14R L33I M36I M46I F53I K55R I62V L63P A71V G73S V82A L90M I93L |  | clinical isolate, multidrug-resistant | 0.45 µM |
| Cc1cn([C@H]2C[C@H](N=[N+]=[N-])[C@@H](CO)O2)c(=O)[nH]c1=O | RT-M184V | RT-E89G | p24 |  | 0.001 µM |
| Cc1ccc(CCNC(=S)Nc2ccc(Br)cn2)cc1 | A17 | RT-Y181C | p24 |  | 0.07 µM |
| CCCCCCCC/C=C\CCCCCCCC(=O)NCCCOc1c(Br)cc(CCNC(=O)CCCCCCCCCCCCC(C)C)cc1Br |  |  | RT activity |  | 52.2 µM |
| COC(=O)C(C)CNP(=O)(OC[C@@H]1CC[C@H](n2cc(C)c(=O)[nH]c2=O)O1)Oc1ccc(Cl)cc1 |  |  | RT activity |  | 2.1 µM |
| CCOP(=O)(N[C@H]1C[C@H](n2cc(C)c(=O)[nH]c2=O)O[C@@H]1CO)OCC | LAV |  |  |  | >100 µM |
| C[C@@H](CNC(=S)Nc1ccccn1)c1ccccc1 | NNRTI-resistant (RT Y181C K103N) A17V | RT-Y181C K103N | p24 |  | 0.54 µM |
| CC[C@H](C)[C@@H](C(=O)O)n1sc2ccccc2c1=O | BR /93/020 |  | p24 / RT activity |  | 9.5 µM |
| COC(=O)C(C)CNP(=O)(OC[C@@H]1CC[C@H](n2cc(C)c(=O)[nH]c2=O)O1)Oc1ccc([N+](=O)[O-])cc1 |  |  | RT activity |  | 2 µM |
| COC(=O)[C@H](C)NP(=O)(OC[C@@H]1C=C[C@H](n2cc(C)c(=O)[nH]c2=O)O1)Oc1ccc(Br)cc1 | IIIB Subtype B |  | p24 |  | 0.0008 µM |
| OC[C@H]1C=C[C@@H](n2cnc3c2NCNC3=S)C1 |  |  |  |  | >100 µM |
| CC(C)=CCN1Cc2cccc3[nH]c(=S)n(c23)C[C@@H]1C | RT-M184V | RT-E89G | p24 |  | 0.02 µM |
| Nc1nc(=O)n([C@@H]2CC[C@H](CO)O2)cc1F | LAI |  | RT activity |  | 0.0002 µM |
| Cc1cn([C@H]2C=C[C@@H](CO)O2)c(=O)[nH]c1=O | NL4-3 |  | p24 |  | 0.009 µM |
| Cc1ccc(NC(=S)NC[C@H](C)c2ccccc2)nc1 | IIIB |  | p24 |  | 0.003 µM |
| O=C(O)C(=O)CC(=O)c1cc(OCc2ccccc2)cc(OCc2ccccc2)c1 | BaL |  | RT activity |  | 1.1 µM |
| Nc1ccn([C@@H]2CC[C@H](CO)O2)c(=O)n1 | LAI |  |  |  | 0.07 µM |
| Nc1nc(=O)n([C@@H]2C[Se][C@H](CO)O2)cc1F | LAV |  | RT activity |  | 0.21 µM |
| COC(=O)[C@H](C)NP(=O)(OC[C@H]1O[C@@H](N2C(=O)NC(=O)C(C)(Br)C2OC)C[C@@H]1N=[N+]=[N-])Oc1ccc(OC)cc1 | IIIB |  | RT activity |  | 0.04 µM |
| CC(C)(C)NC(=O)[C@@H]1C[C@@H]2CCCC[C@@H]2CN1C[C@@H](O)[C@H](Cc1ccccc1)NC(=O)[C@H](CC(N)=O)NC(=O)c1ccc2ccccc2n1 | 006 |  | p24 |  | 0.0049 µM |
| O=C(O)P(=O)(O)O | 8890 CLADE C CLADE C |  | p24 |  | 6.72 µM |
| Cc1cn([C@H]2C=C[C@@H](COC(=O)CNC(=O)C(=O)/C=C(\O)c3cc(OCc4ccccc4)cc(OCc4ccccc4)c3)O2)c(=O)[nH]c1=O | BaL |  | RT activity |  | 0.83 µM |
| COC(=O)N[C@H](C(=O)N[C@@H](Cc1ccccc1)[C@@H](O)CN(Cc1ccc(-c2ccccn2)cc1)NC(=O)[C@@H](NC(=O)OC)C(C)(C)C)C(C)(C)C | ERS104pre |  | p24 / luciferase |  | 0.0026 µg/mL |

Lines come from different laboratories, so protocols vary. An empty or dashed field is not shown. ECn is the concentration giving n% inhibition of infection, replication or growth.